{
  "source": "paper PMC12029836",
  "about": "“Phytotoxicity, Cytotoxicity, and Antimicrobial Activity of Triethanolammonium Amino Acids Salts” (Molecules, 2025)",
  "tested_on": "S. aureus ATCC 6538",
  "test": "Antimicrobial activity, broth microdilution MIC/MBC",
  "assay_type": "cell-based, Staphylococcus aureus",
  "settings": "S. aureus ATCC 6538, 24 h at 37 °C, at least 90% growth inhibition; nd—not detected",
  "note": "Only a part of the results on these compounds is given; other tests are left out.",
  "data": [
    {"molecule": "OCCN(CCO)CCO", "values": [
      {"measurement": "MIC (%)", "result": 6.25, "unit": "%"}
    ]}
  ]
}
